Measurements published in paper PMC5719402, “Protein-Structure Assisted Optimization of 4,5-Dihydroxypyrimidine-6-Carboxamide Inhibitors of Influenza Virus Endonuclease” (Scientific Reports, 2017).

Experiments:
[1] = target: wild type PAN ΔLoop protein (Influenza A virus, UniProt C3W5S0, DEL51-57/DEL61-72/E59G); experiment: FRET based PAN nuclease activity assay; type: biochemical, influenza A/California/04/2009 H1N1; details: read-out: FRET nuclease assay IC50
[2] = target: wild type PAN protein (PA endonuclease domain) (Influenza A virus, UniProt C3W5S0)

O=C(O)c1nc([C@@H]2CCCN2C(=O)COc2ccccc2Cl)[nH]c(=O)c1O
IC50 [1]: 0.045 µM | Ki [2]: < 0.01 µM
